Results taken from publication PMC4516937 (Toxins, 2015).

The chains behind the UniProt entries cited, without tags or fusion partners. Where a name states a change or a piece, a line headed by the entry shows the natural chain unless it says otherwise.
UniProt Q7XT97: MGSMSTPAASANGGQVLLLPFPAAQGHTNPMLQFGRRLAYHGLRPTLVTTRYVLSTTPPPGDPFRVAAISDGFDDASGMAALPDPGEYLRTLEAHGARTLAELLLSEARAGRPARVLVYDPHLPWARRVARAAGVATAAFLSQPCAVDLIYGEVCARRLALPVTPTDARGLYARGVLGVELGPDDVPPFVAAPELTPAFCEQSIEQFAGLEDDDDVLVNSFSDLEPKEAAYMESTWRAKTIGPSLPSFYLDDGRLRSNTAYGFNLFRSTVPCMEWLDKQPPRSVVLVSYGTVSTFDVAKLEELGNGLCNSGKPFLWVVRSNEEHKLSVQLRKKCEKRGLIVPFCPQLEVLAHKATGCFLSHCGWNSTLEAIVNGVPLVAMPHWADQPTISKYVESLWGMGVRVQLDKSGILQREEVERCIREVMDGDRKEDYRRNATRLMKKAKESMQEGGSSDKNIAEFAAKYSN

Target: OsUGT79 (Oryza sativa, UniProt Q7XT97)

SMILES: CC1=C[C@H]2O[C@@H]3[C@H](O)C[C@](C)([C@@]2(CO)[C@H](O)C1=O)[C@]31CO1
- Km: 230 µM
